A mixed list of measured activities; the numbers were collected in NIAID ChemDB.

All rows: tests in culture; agent: Mycobacterium avium; measure: MIC

Conditions beyond the fields shown may differ between rows.

{"SMILES": "CCc1cc(C(N)=S)ccn1", "strain": "3011", "result": ">8 µg/mL"}
{"SMILES": "Cc1ccc2nc(SCc3cccnc3)[nH]c2c1", "strain": "MY330/88", "result": "250 µM"}
{"SMILES": "N[C@H]1CCN(c2nc3c(cc2F)c(=O)c(C(=O)O)cn3C2CC2)C1", "strain": "II", "result": "32 µg/mL"}
{"SMILES": "O=C1c2cc(Cl)ccc2OP(=O)(c2ccccc2)N1c1ccc(C(F)(F)F)cc1", "setting": "7 d", "strain": "MY330/88", "result": "8 µM"}
{"SMILES": "CN[C@@H]1[C@H](O[C@H]2[C@H](O[C@H]3[C@H](O)[C@@H](O)[C@H](N=C(N)N)[C@@H](O)[C@@H]3N=C(N)N)O[C@@H](C)[C@]2(O)C=O)O[C@@H](CO)[C@H](O)[C@H]1O", "strain": "453-C clarithromycin-resistant", "result": "8 µg/mL"}
{"SMILES": "Cc1ccc2nc(SCc3cccc4ccccc34)[nH]c2c1", "strain": "MY330/88", "result": ">62.5 µM"}
{"SMILES": "CC(C)N=c1cc2n(-c3ccc(Cl)cc3)c3ccccc3nc-2cc1Nc1ccc(Cl)cc1", "strain": "1435-C clarithromycin-resistant", "result": "0.12 µg/mL"}
{"SMILES": "O=C(Nc1ccc(C(F)(F)F)cc1)c1cc(Br)ccc1OP(=O)(OCc1ccccc1)OCc1ccccc1", "setting": "7 d", "strain": "MY330/88", "result": "32 µM"}
{"SMILES": "c1ccc2c(CSc3ncn[nH]3)cccc2c1", "strain": "MY330/88", "result": "250 µM"}
{"SMILES": "CC1CN(c2c(F)c(N)c3c(=O)c(C(=O)O)cn(C4CC4)c3c2F)CCN1C", "strain": "RG3", "result": "0.25 µg/mL"}
{"SMILES": "NC1CCN(c2nc3c(cc2F)c(=O)c(C(=O)O)cn3-c2ccc(F)cc2F)C1", "strain": "I", "result": "32 µg/mL"}
{"SMILES": "CO[C@H]1/C=C/O[C@@]2(C)Oc3c(C)c(O)c4c(O)c(c5c(c4c3C2=O)NC2(CCN(CC(C)C)CC2)N=5)=NC(=O)/C(C)=C\\C=C\\[C@H](C)[C@H](O)[C@@H](C)[C@@H](O)[C@@H](C)[C@H](OC(C)=O)[C@@H]1C", "strain": "6-28", "result": "<0.15 µg/mL"}
{"SMILES": "N[C@@H]1CONC1=O", "strain": "453", "result": "16 µg/mL"}
{"SMILES": "O=C(O)c1cn(C2CC2)c2c(F)c(N3CCN4CCC3C4)c(F)cc2c1=O", "strain": "RG3", "result": "0.25 µg/mL"}
{"SMILES": "O=C(Nc1ccc(Cl)cc1)c1cc(Cl)ccc1OP(=O)(Oc1ccccc1)Oc1ccccc1", "setting": "14 d", "strain": "MY330/88", "result": "16 µM"}
{"SMILES": "CC[C@@H](CO)NCCN[C@@H](CC)CO", "strain": "RG3", "result": "8 µg/mL"}
{"SMILES": "c1ccc2sc(SCc3ccncc3)nc2c1", "strain": "MY330/88", "result": "125 µM"}
{"SMILES": "CO[C@H]1/C=C/O[C@@]2(C)Oc3c(C)c(O)c4c(=O)c(c5oc6cc(N7CCN(CC(C)C)CC7)cc(=O)c6nc5c4c3=C2O)NC(=O)/C(C)=C\\C=C\\[C@H](C)[C@H](O)[C@@H](C)[C@@H](O)[C@@H](C)[C@H](OC(C)=O)[C@@H]1C", "strain": "3010", "result": "0.031 µg/mL"}
{"SMILES": "N#Cc1cc(SCc2cccnc2)ccn1", "strain": "MY330/88", "result": "1000 µM"}
{"SMILES": "O=C(Nc1ccccc1)c1ccccc1OP(=O)(c1ccccc1)c1ccccc1", "setting": "7 d", "strain": "MY330/88", "result": "125 µM"}
{"SMILES": "Cc1ccc2nc(SCc3ccccn3)[nH]c2c1", "strain": "MY330/88", "result": "250 µM"}
{"SMILES": "O=C(Nc1ccccc1)c1ccccc1OP(=O)(Oc1ccccc1)c1ccccc1", "setting": "14 d", "strain": "MY330/88", "result": "500 µM"}
{"SMILES": "CO[C@H]1/C=C/O[C@@]2(C)Oc3c(C)c(O)c4c(O)c(c5c(c4c3C2=O)NC2(CCN(CC(C)C)CC2)N=5)=NC(=O)/C(C)=C\\C=C\\[C@H](C)[C@H](O)[C@@H](C)[C@@H](O)[C@@H](C)[C@H](OC(C)=O)[C@@H]1C", "strain": "Isolate 90-1065", "result": ">1 µg/mL"}
{"SMILES": "c1ccc(CSc2nc3ccccc3[nH]2)nc1", "strain": "MY330/88", "result": "500 µM"}
{"SMILES": "O=C(Nc1ccc(Br)cc1)c1cc(Cl)ccc1OP(=O)(Oc1ccccc1)Oc1ccccc1", "setting": "7 d", "strain": "MY330/88", "result": "16 µM"}

Repeating the first 3 entries:

CCc1cc(C(N)=S)ccn1 ; strain: 3011 ; result: >8 µg/mL
Cc1ccc2nc(SCc3cccnc3)[nH]c2c1 ; strain: MY330/88 ; result: 250 µM
N[C@H]1CCN(c2nc3c(cc2F)c(=O)c(C(=O)O)cn3C2CC2)C1 ; strain: II ; result: 32 µg/mL